Anti-infective test results gathered from many reports (values: NIAID ChemDB through PubChem).

All rows: cytotoxicity tests; endpoint: CC50

Blank or dashed fields: not listed here. CCn is the concentration with n% toxicity to the cells. Conditions beyond the fields shown may differ between rows.

SMILES | cells | read by | value
CC(=O)Nc1cccc(-c2cc(=O)n(O)c3ncccc23)c1 | HeLa |  | <100 µM
CC(C)C[C@@H]1NC(=O)[C@H](Cc2c[nH]c3ccccc23)NC(=O)C(CCCN=C(N)N)NC(=O)[C@H](CC(N)=O)NC(=O)[C@H](C(C)C)NC(=O)[C@@H](CC(C)C)NC1=O | Lung carcinoma cells | MTT | >30 µM
CC[C@@H](CCC[C@@H](CO)N(CC(C)C)S(=O)(=O)c1ccc(CO)cc1)NC(=O)[C@@H](NC(=O)OC)C(c1ccccc1)c1ccccc1 | T lymphoid cells | microscopy | >10 µM
Nc1nc2c(ncn2COC(CO)CO)c(=O)[nH]1 | BFU-E |  | 39 µM
CC(C)C[C@@H]1NC(=O)[C@H](Cc2c[nH]c3ccccc23)NC(=O)CNC(=O)[C@H](CC(N)=O)NC(=O)[C@H](C(C)C)NC(=O)[C@@H](CC(C)C)NC1=O | Colorectal carcinoma cells | MTT | >30 µM
CCCN([C@H](CO)CCC[C@H](C)NC(=O)[C@@H](NC(=O)OC)C(c1ccccc1)c1ccccc1)S(=O)(=O)c1ccc(CO)cc1 | T lymphoid cells | microscopy | >10 µM
CCOC(=O)c1c(O)c2cc(C(=O)N3CCC(CCc4ccccc4)CC3)cnc2n(O)c1=O | HeLa |  | <100 µM
CCOC(=O)c1ccc(Nc2ncnc3c2cnn3-c2ccc(C)cc2C)cc1 | HUH 9B |  | 49 µM
CCOC(=O)CCCCCOc1cccc(CN(C(=O)c2ccc(-c3cccc(OC(F)(F)F)c3)cc2)C(C)C)c1 | RAJI |  | >20 µM
O=c1c(-c2ccccc2)c(O)c2cc(S(=O)(=O)NCc3ccccc3)cnc2n1O | HeLa |  | <100 µM
CC(=O)Nc1ccc(Nc2ncnc3c2cnn3-c2ccc(C)cc2C)cc1 | HUH 9B |  | >50 µM
CC(C)Nc1nc2cc(Cl)c(Cl)cc2n1[C@H]1O[C@@H](CO)[C@H](O)[C@@H]1O | BFU-E |  | 88 µM
COC(=O)N[C@@H](Cc1ccccc1Cl)C(=O)N[C@@H](C)CCC[C@@H](CO)N(CC(C)C)S(=O)(=O)c1ccc(N)cc1 | T lymphoid cells | microscopy | >10 µM
CCOC(=O)CCCCCOc1cccc(CN(C(=O)c2ccc(-c3cc(OC)cc(OC)c3)cc2)C(C)C)c1 | HepG2 |  | >20 µM
CCOC(=O)c1c(O)c2cc(C(=O)NC3CCCCC3)cnc2n(O)c1=O | HeLa |  | <100 µM
CC(C)(C)OC(=O)NCC(OC(=O)C(O)CO)c1ccc2c(c1)OCO2 | HepG2 |  | <7.5 µM
Cc1ccc(-n2ncc3c(NC(=O)Cc4ccccc4Br)ncnc32)c(C)c1 | HUH 9B |  | 35 µM
CCOC(=O)CCCCCOc1cccc(CN(C(=O)c2ccccc2)C(C)C)c1 | HepG2 |  | >20 µM
CC(C)C[C@@H]1NC(=O)[C@H](Cc2c[nH]c3ccccc23)NC(=O)[C@H](CCCCN)NC(=O)[C@H](CC(N)=O)NC(=O)[C@H](C(C)C)NC(=O)[C@@H](CC(C)C)NC1=O | Lung carcinoma cells | MTT | >30 µM
COc1cnc(-n2ccnn2)c2[nH]cc(C(=O)C(=O)N3CCN(C(=O)c4ccccc4)[C@H](C)C3)c12 | HeLa | trypan blue | >100 µM
COc1ccc(Cl)cc1Nc1ncnc2c1cnn2-c1ccccc1Cl | HUH 9B |  | >40 µM
COc1cnc(-c2ccn[nH]2)c2[nH]cc(C(=O)C(=O)N3CCN(C(=O)c4ccccc4)CC3)c12 | HeLa | trypan blue | ≤100 µM
CC(C)C[C@@H]1NC(=O)[C@H](Cc2c[nH]c3ccccc23)NC(=O)[C@@H](CCCCN)NC(=O)[C@H](CC(N)=O)NC(=O)[C@H](C(C)C)NC(=O)[C@@H](CC(C)C)N(C)C1=O | Colorectal carcinoma | MTT | >30 µM
O=c1c(-c2ccc(Br)cc2)c(O)c2cccnc2n1O | HeLa |  | <100 µM
CC[C@H](C)[C@@H]1NC(=O)[C@@H](CC(C)C)NC(=O)[C@H](CC(C)C)NC(=O)[C@H](Cc2c[nH]c3ccccc23)NC(=O)CNC(=O)[C@H](CC(N)=O)NC1=O | Colorectal carcinoma | MTT | >30 µM
O=c1cc(O)c2cccnc2n1O | HeLa |  | <100 µM
C[C@@H]1CN(C(=O)C(=O)c2c[nH]c3c(-n4nnc5ccccc54)cc(Cl)nc23)CCN1C(=O)c1ccccc1 | HeLa | trypan blue | >100 µM
CCCN([C@H](CO)CCC[C@H](CC)NC(=O)[C@@H](NC)C(c1ccccc1)c1ccccc1)S(=O)(=O)c1ccc(CO)cc1 | T lymphoid cells | microscopy | >10 µM
Cc1ccc(-n2ncc3c(Nc4ccc(C(N)=O)cc4)ncnc32)c(C)c1 | HUH 9B |  | >50 µM
CC(C)C[C@@H]1NC(=O)[C@@H](Cc2c[nH]c3ccccc23)NC(=O)CNC(=O)[C@@H](CC(N)=O)NC(=O)[C@H](C(C)C)NC(=O)[C@@H](CC(C)C)NC1=O | Lung carcinoma cells | MTT | >30 µM
CNC(=O)c1ccn(-c2ncc(OC)c3c(C(=O)C(=O)N4CCN(C(=O)c5ccccc5)CC4)c[nH]c23)n1 | HeLa | trypan blue | >100 µM
COc1cc(F)cc(-c2ccc(C(=O)N(Cc3cccc(OCCCCCC(=O)OC(=O)O)c3)C(C)C)cc2)c1 | HEK 293 |  | >20 µM
Cc1cc2c(O[C@H]3O[C@H](CO)[C@@H](O)[C@H]3O)ccc(O)c2c(=O)o1 | SW-480 | MTT | >40 µg/mL
COC(=O)N[C@H](C(=O)N[C@H](CCC[C@@H](CO)N(C)S(=O)(=O)c1ccc(N)cc1)C1CC1)C(c1ccccc1)c1ccccc1 | T lymphoid cells | microscopy | >10 µM
CN(C(=O)c1c(O)c2cccnc2n(O)c1=O)C1CCN(C(=O)OC(C)(C)C)C1 | HeLa |  | <100 µM
Cc1ccc(-n2ncc3c(Nc4ccc(N5CCOCC5)c(F)c4)ncnc32)c(C)c1 | HUH 9B |  | >50 µM
O=C(c1c(O)c2cccnc2n(O)c1=O)N1CCCCC1 | HeLa |  | <100 µM
O=C(c1c[nH]c2ccccc12)[C@H](O)CO | SW-480 | MTT | >40 µg/mL
COc1ccc(Cl)cc1Nc1ncnc2c1cnn2-c1cccc(Cl)c1 | HUH 9B |  | 16 µM
CCCN([C@H](CO)CCC[C@@H](NC(=O)[C@@H](NC(=O)OC)C(c1ccccc1)c1ccccc1)C1CC1)S(=O)(=O)c1ccc(N)cc1 | T lymphoid cells | microscopy | >10 µM
CC(C)N(Cc1ccc(OCC(=O)O)cc1)C(=O)c1ccc(-c2ccc3c(c2)OCO3)cc1 | HEK 293 |  | >20 µM
CC(C)C[C@@H]1NC(=O)[C@H](Cc2c[nH]c3ccccc23)NC(=O)CNC(=O)[C@H](CO)NC(=O)[C@H](C(C)C)NC(=O)[C@@H](CC(C)C)NC1=O | Colorectal carcinoma | MTT | >30 µM
CC[C@@H](CCC[C@@H](CO)N(CC(C)C)S(=O)(=O)c1ccc(CO)cc1)NC(=O)[C@@H](N)C(c1ccccc1)c1ccccc1 | T lymphoid cells | microscopy | >10 µM

6 of the rows above, restated:

SMILES | cells | read by | value
CC(C)C[C@@H]1NC(=O)[C@@H](Cc2c[nH]c3ccccc23)NC(=O)CNC(=O)[C@@H](CC(N)=O)NC(=O)[C@H](C(C)C)NC(=O)[C@@H](CC(C)C)NC1=O | Lung carcinoma cells | MTT | >30 µM
COc1ccc(Cl)cc1Nc1ncnc2c1cnn2-c1cccc(Cl)c1 | HUH 9B |  | 16 µM
CC[C@H](C)[C@@H]1NC(=O)[C@@H](CC(C)C)NC(=O)[C@H](CC(C)C)NC(=O)[C@H](Cc2c[nH]c3ccccc23)NC(=O)CNC(=O)[C@H](CC(N)=O)NC1=O | Colorectal carcinoma | MTT | >30 µM
COc1ccc(Cl)cc1Nc1ncnc2c1cnn2-c1ccccc1Cl | HUH 9B |  | >40 µM
CCCN([C@H](CO)CCC[C@H](CC)NC(=O)[C@@H](NC)C(c1ccccc1)c1ccccc1)S(=O)(=O)c1ccc(CO)cc1 | T lymphoid cells | microscopy | >10 µM
C[C@@H]1CN(C(=O)C(=O)c2c[nH]c3c(-n4nnc5ccccc54)cc(Cl)nc23)CCN1C(=O)c1ccccc1 | HeLa | trypan blue | >100 µM